{"source": "ChEMBL document CHEMBL6071156", "about": "(Eur J Med Chem, 2024)", "assay": "in vitro", "conditions": "human, liver microsomes", "data": [{"smiles": "CC(C)NCC(O)COc1cccc2ccccc12", "note": "(stereo unspecified) [PROPRANOLOL]", "values": [{"measurement": "half-life", "result": 2.32, "unit": "h"}]}]}
